Experimental data: the NIST ThermoML archive (doi:10.1016/j.fluid.2013.09.036)

Test: xn = mol fraction of the nth substance listed
Conditions: Liquid, Other PVT measurement

COC[N+]1(C)CCCC1.O=S(=O)(F)[N-]S(=O)(=O)F + O=C=O
Conditions	molar volume [m3/mol]
298.15 K, 592.4 kPa, x2 = 0.13	0.000197
298.15 K, 1052.3 kPa, x2 = 0.213	0.0001817
298.15 K, 1496.9 kPa, x2 = 0.282	0.0001691
298.15 K, 1824.7 kPa, x2 = 0.326	0.000161
298.15 K, 2530.6 kPa, x2 = 0.406	0.0001462
298.15 K, 3022.4 kPa, x2 = 0.454	0.0001375
298.15 K, 3587.3 kPa, x2 = 0.501	0.0001288
298.15 K, 4115.6 kPa, x2 = 0.538	0.0001219
298.15 K, 4600.7 kPa, x2 = 0.569	0.0001164
313.15 K, 696.2 kPa, x2 = 0.116	0.0002015
313.15 K, 1173.9 kPa, x2 = 0.183	0.0001891
313.15 K, 1500.7 kPa, x2 = 0.223	0.0001816
313.15 K, 1939.8 kPa, x2 = 0.273	0.0001725
313.15 K, 2566.9 kPa, x2 = 0.334	0.000161
313.15 K, 3096.9 kPa, x2 = 0.378	0.0001527
313.15 K, 3529 kPa, x2 = 0.411	0.0001466
313.15 K, 3965.6 kPa, x2 = 0.44	0.0001411
313.15 K, 4630.9 kPa, x2 = 0.48	0.0001337
333.15 K, 674.6 kPa, x2 = 0.084	0.0002096
333.15 K, 1089.9 kPa, x2 = 0.128	0.0002011
333.15 K, 1522.8 kPa, x2 = 0.171	0.0001931
333.15 K, 1737.7 kPa, x2 = 0.19	0.0001894
333.15 K, 2395.5 kPa, x2 = 0.244	0.0001792
333.15 K, 2714.6 kPa, x2 = 0.269	0.0001746
333.15 K, 3315.3 kPa, x2 = 0.309	0.000167
333.15 K, 4107 kPa, x2 = 0.358	0.0001579
333.15 K, 4917.1 kPa, x2 = 0.4	0.0001502
